Laboratory results as given in patent EP1228097B1, “ANTIMICROBIAL ACTIVITY OF THE FIRST CATIONIC CLUSTER OF HUMAN LACTOFERRIN” (priority 1999, dated 2005).

Sequences of proteins named here, by UniProt entry; tags and fusion partners are left off. A change or cut given only in a name is not applied to a line headed by its entry.
UniProt P02788: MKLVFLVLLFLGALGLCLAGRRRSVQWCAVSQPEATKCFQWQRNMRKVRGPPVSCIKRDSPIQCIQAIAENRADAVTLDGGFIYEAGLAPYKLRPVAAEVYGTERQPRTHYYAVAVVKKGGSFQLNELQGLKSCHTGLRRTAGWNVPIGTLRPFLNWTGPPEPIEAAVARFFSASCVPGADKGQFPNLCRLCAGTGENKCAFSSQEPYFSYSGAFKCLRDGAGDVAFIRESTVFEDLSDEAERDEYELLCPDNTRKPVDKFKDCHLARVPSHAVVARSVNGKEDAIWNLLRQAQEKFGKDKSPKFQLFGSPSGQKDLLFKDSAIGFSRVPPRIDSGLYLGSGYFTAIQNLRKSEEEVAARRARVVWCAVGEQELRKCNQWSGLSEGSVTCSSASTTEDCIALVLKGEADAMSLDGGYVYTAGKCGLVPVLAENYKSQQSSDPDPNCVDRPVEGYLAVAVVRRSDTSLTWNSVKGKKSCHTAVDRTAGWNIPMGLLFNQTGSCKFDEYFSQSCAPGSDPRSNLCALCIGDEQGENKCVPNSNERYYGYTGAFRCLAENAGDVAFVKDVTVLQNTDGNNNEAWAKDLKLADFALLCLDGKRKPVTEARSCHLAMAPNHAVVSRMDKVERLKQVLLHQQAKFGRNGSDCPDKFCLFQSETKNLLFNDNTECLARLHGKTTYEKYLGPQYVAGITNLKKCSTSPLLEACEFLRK

Test system: bacterial infection
Test: imaging of a bacterial infection with 99mTc-labelled hLF and related peptides
Format: in vivo, mice
Details: compared with radiolabeled polyclonal human IgG

| Substance | visualization of / accumulation at the site of infection (result in words) | visualization of / accumulation at the site of infection (result in words) (listed as HLF(1-11)) |
| --- | --- | --- |
| GRRRRSVQWCA [hLF(1-11), Mr 1,374] | rapidly accumulate at the site of infection | superior to the other peptides and hLF itself |
| hLF(2-11): residues 2 to 11 inclusively from the N-terminal region of hLF (RRRSVQWCAV; UniProt P02788 21-30, looked up, fragment) | rapidly accumulate at the site of infection | – |
| hLF(3-11): synthetic fragment of hLF(1-11): residues 3-11 of hLF (RRSVQWCAV; UniProt P02788 22-30, looked up, fragment) | rapidly accumulate at the site of infection | – |

Some compounds share one wording; it may come from a single statement.
